Measurements from US20040127405A1, “Methods for treating lung infections and lung tumors and for treating and preventing lung metastases” (priority 2000, published 2004).

System: lungs of rats
Test: Histological investigation of the lung after intratracheal instillation
Assay type: in vivo, rat

S-[2,3-bispalmitoyloxy-(2R)-propyl]cysteinyl-GNNDESNISFKEK (N-terminal S-(2,3-bispalmitoyloxy-2R-propyl)cysteine) [2R-MALP-2]
lung histology (2.5 μg intratracheal): mild inflammation | lung histology (25 μg intratracheal, three days after instillation): multifocal, pneumonia-like infiltration consisting of neutrophils and mononuclear cells
